The entries are a selection whose mix differs from that of the whole data set. Calls of active or inactive are those of the source.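 The calls were made as follows: active = inhibition above the screen-wide mean plus 3 SD (cut at about 13% in these data); inactive = the rest.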
Each molecule was assayed on HIV-1 integrase (with human LEDGF/p75) (assay: blockers of LEDGF/p75-dependent integrase strand transfer – biochemical, TR-FRET, high throughput, primary screen (AID 743269;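 also: signal is the Cy5 over europium emission ratio at 671 and 618 nm; 0% = plate median of compound wells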)). Conditions: TR-FRET IN-LEDGF/p75 DNA integration, Eu/Cy5; at 3.7 µM; active compounds read high.

| Compound | inhibition |
| --- | --- |
| O=C(O)c1ccccc1[As](=O)(O)O | inactive: -5.92% |
| CC(=O)Nc1ccc([As](=O)(O)O)cc1 | inactive: 0.19% |
| CCCC1OP(N)(=O)OCC1CC (centres undefined) | inactive: 0.83% |
| CN(C)P(=O)(N(C)C)n1c(Nc2ccccc2)nnc1-c1ccccc1 | inactive: 4.13% |
| O=P(Nc1nc2ccc(Cl)cc2s1)(c1ccccc1)c1ccccc1 | inactive: 9.45% |
| CCOP(=O)(Nc1ccccc1)OCC | inactive: 2.36% |
| Cc1cc(SC(NC(=O)c2ccc(F)cc2)C(Cl)(Cl)Cl)ncn1 (centres undefined) | inactive: 0.41% |
| Cc1ccc(NP(=O)(Oc2ccccc2F)Oc2ccccc2F)nc1 | inactive: 2.01% |
| CN(C(=O)Cc1ccc(Cl)c(Cl)c1)[C@H]1CCCC[C@@H]1N1CCCC1 | inactive: -0.75% |
| CCn1c(=O)n(C2CCN(CC3CCCCCCC3)C[C@H]2CO)c2ccccc21 (some centres undefined) | inactive: 1.32% |
| CN(C(=O)Cc1ccccc1)C1CC[C@@]2(CCCO2)C[C@@H]1N1CCCC1 (some centres undefined) | inactive: -1.18% |
| CCN(N=Nc1nonc1N)c1nonc1N | inactive: -1.43% |
| Nc1cccc2ccc([As](=O)(O)O)cc12 | active: 32.9% |
| NC(=O)c1cc([N+](=O)[O-])cc([N+](=O)[O-])c1N | inactive: 3.31% |
| CN(C(=O)Cc1ccc(Cl)c(Cl)c1)[C@H]1CCCC[C@H]1N1CCCC1 | inactive: 5.08% |
| Cc1ccc(N/C(=N/P(=O)(N2CCOCC2)N2CCOCC2)N2CCOCC2)cc1 | inactive: 4.76% |
| COc1ccccc1OP(=O)(Nc1ccc(C)cn1)Oc1ccccc1OC | inactive: -7.3% |
| Cc1ccc(OP(=O)(Nc2nccs2)Oc2ccc(C)cc2)cc1 | inactive: 0.4% |
| Clc1ccc(Cl)c(NC2=NCC(CBr)S2)c1 (centres undefined) | inactive: -2.37% |
| CN1CCCC(OC(=O)C(c2ccccc2)c2ccccc2)C1 (centres undefined) | inactive: 2.69% |
| CC(C)CC(=O)NC(Sc1ccc(Cl)cc1)C(Cl)(Cl)Cl (centres undefined) | inactive: -6.07% |
| Nc1cc(N)c2nonc2c1[N+](=O)[O-] | inactive: -1.86% |
| Oc1ccccc1CNc1ccccn1 | inactive: 0.18% |
| O=C(NC(Sc1ccncn1)C(Cl)(Cl)Cl)c1ccccc1 (centres undefined) | inactive: -5.11% |
| COc1ccc(C2=NCC(CBr)S2)cc1 (centres undefined) | inactive: -2.53% |
| O=[N+]([O-])c1cccc2n[nH]nc12 | inactive: -2.58% |
| CC(=O)N1C2C3N(C(C)=O)C1C1N(C(C)=O)C(C(N1C(C)=O)N3C(C)=O)N2C(C)=O | inactive: 0.17% |
| Cc1ccc(NP(=O)(Oc2ccccc2)Oc2ccccc2)nc1 | inactive: -0.54% |
| CCc1nc2c(n1)c1c(non1O)c1c2no[n+]1[O-] | inactive: -5.8% |

From PubChem BioAssay AID743269 (The Scripps Research Institute Molecular Screening Center, 2014)
